Results published in PubChem BioAssay (NCI).
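Method: 48-hour compound exposure of cells in 96-well plates, five concentrations, linear interpolation of endpoints. Abbreviation: GI50, concentration required for 50% inhibition of growth. At the TGI there is no net growth.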

Assays:
Experiment in all cases: NCI anticancer screen, dose series, 48 h
[1] = system: PC-3 prostate
[2] = system: MCF7 breast
[3] = system: HL-60(TB) leukemia
[4] = system: EKVX NSCLC
[5] = system: UACC-62 melanoma
[6] = system: SF-539 CNS
[7] = system: COLO 205 colon
[8] = system: LOX IMVI melanoma
[9] = system: NCI-H226 lung
[10] = system: T-47D breast
[11] = system: CCRF-CEM leukemia
[12] = system: IGROV1 ovarian
[13] = system: SR leukemia
[14] = system: HOP-92 NSCLC
[15] = system: BT-549 breast
[16] = system: UO-31 renal
[17] = system: NCI/ADR-RES ovarian
[18] = system: CAKI-1 renal
[19] = system: HT29 colon
[20] = system: NCI-H522 lung
[21] = system: NCI-H23 lung
[22] = system: HCC-2998 colon
[23] = system: HCT-116 colon
[24] = system: OVCAR-8 ovarian
[25] = system: NCI-H460 lung
[26] = system: TK-10 renal
[27] = system: MDA-MB-231 breast
[28] = system: A498 renal
[29] = system: KM12 colon
[30] = system: SF-295 CNS
[31] = system: OVCAR-3 ovarian
[32] = system: SK-MEL-2 melanoma
[33] = system: K-562 leukemia
[34] = system: 786-0 renal
[35] = system: MOLT-4 leukemia
[36] = system: OVCAR-4 ovarian
[37] = system: SF-268 CNS
[38] = system: RXF 393 renal
[39] = system: OVCAR-5 ovarian
[40] = system: SW-620 colon
[41] = system: M14 melanoma
[42] = system: MDA-MB-435
[43] = system: A549 NSCLC
[44] = system: UACC-257 melanoma
[45] = system: MDA-N
[46] = system: SK-MEL-28 melanoma
[47] = system: SNB-75 CNS
[48] = system: DU-145 prostate
[49] = system: ACHN renal
[50] = system: U251 CNS
[51] = system: HCT-15 colon
[52] = system: HOP-62 NSCLC
[53] = system: RPMI-8226 leukemia
[54] = system: SK-OV-3 ovarian

CC1=CC2O[C@@H]3C[C@H]4OC(=O)/C=C\C=C\C56OCCC7(OC7C(=O)OCC2(CC1)[C@]4(C)[C@]31CO1)C5OC(O)C6O (stereo partly specified)
GI50 [1]: 1.93 nM | TGI [1]: 51.2 nM | GI50 [2]: 1.76 nM | TGI [2]: > 10000 nM | GI50 [3]: 2.01 nM | GI50 [4]: 1.88 nM | TGI [4]: 7.07 nM | GI50 [5]: 1.44 nM | TGI [5]: 3.1 nM | GI50 [6]: 1.45 nM | TGI [6]: 2.65 nM | GI50 [7]: 3.3 nM | TGI [7]: > 10000 nM | GI50 [8]: 1.62 nM | GI50 [9]: 1.79 nM | TGI [9]: 4.33 nM | GI50 [10]: 2.4 nM | TGI [10]: 217 nM | GI50 [11]: 2.15 nM | GI50 [12]: 1.73 nM | TGI [12]: 3.39 nM | GI50 [13]: < 1 nM | GI50 [14]: 2.18 nM | TGI [14]: 175 nM | GI50 [15]: 1.33 nM | TGI [15]: 2.41 nM | GI50 [16]: 2.38 nM | TGI [16]: 226 nM | GI50 [17]: < 1 nM | TGI [17]: 4.35 nM | GI50 [18]: 1.88 nM | TGI [18]: 557 nM | GI50 [19]: 1.58 nM | TGI [19]: 2.86 nM | GI50 [20]: 1.18 nM | TGI [20]: 6.41 nM | GI50 [21]: 2.87 nM | TGI [21]: 13 nM | GI50 [22]: 1.47 nM | TGI [22]: 4.03 nM | GI50 [23]: 2.64 nM | TGI [23]: 1650 nM | GI50 [24]: 1.74 nM | TGI [24]: 6.28 nM | GI50 [25]: 1.75 nM | GI50 [26]: 1.86 nM | TGI [26]: 137 nM | GI50 [27]: 5.18 nM | TGI [27]: > 10000 nM | GI50 [28]: 4.92 nM | TGI [28]: > 10000 nM | GI50 [29]: 1.67 nM | TGI [29]: 4.89 nM | GI50 [30]: 2.32 nM | TGI [30]: 9.27 nM | GI50 [31]: 2.06 nM | TGI [31]: 666 nM | GI50 [32]: 1.83 nM | TGI [32]: 13.2 nM | GI50 [33]: 11.9 nM | TGI [33]: > 10000 nM | GI50 [34]: < 1 nM | TGI [34]: 2.18 nM | GI50 [35]: 1.26 nM | GI50 [36]: 1.79 nM | TGI [36]: 114 nM | GI50 [37]: 2.72 nM | TGI [37]: > 10000 nM | GI50 [38]: 1.66 nM | TGI [38]: 4.41 nM | GI50 [39]: 2.9 nM | TGI [39]: > 10000 nM | GI50 [40]: 2.02 nM | TGI [40]: > 10000 nM | GI50 [41]: 1.86 nM | TGI [41]: 4.08 nM | GI50 [42]: 1.49 nM | TGI [42]: 3.1 nM | GI50 [43]: 2.96 nM | TGI [43]: > 10000 nM | GI50 [44]: < 1 nM | TGI [44]: 1.76 nM | GI50 [45]: 1.66 nM | TGI [45]: 3.69 nM | GI50 [46]: 1.82 nM | TGI [46]: 14.7 nM | GI50 [47]: 1.69 nM | TGI [47]: 2.94 nM | GI50 [48]: 2.65 nM | TGI [48]: 231 nM | GI50 [49]: 1.69 nM | TGI [49]: 224 nM | GI50 [50]: 3.13 nM | TGI [50]: > 10000 nM | GI50 [51]: 1.56 nM | GI50 [52]: 1.76 nM | TGI [52]: > 10000 nM | GI50 [53]: 1.93 nM | TGI [53]: > 10000 nM | GI50 [54]: 3.49 nM | TGI [54]: 31.4 nM
